Pooled drug test results. Numbers come from NIAID ChemDB, via PubChem.

Shared fields: growth or infection tests; agent: Human cytomegalovirus; measure: EC50

Blank or dashed fields: not listed here. Neighbouring rows are from separate reports. ECn is the concentration giving n% inhibition of infection, replication or growth.

structure	cells	strain	result
Nc1nc2c(ncn2[C@@H]2C=C[C@H](CO)[C@@H](O)C2)c(=O)[nH]1		AD169	0.6 µg/mL
CCOC(=O)/C=C\C=C\[C@H]1O[C@@H](n2ccc(=O)[nH]c2=O)[C@H](O)[C@@H]1O	HEL	DAVIS	10 µM
CCCCCCCCCCCCCCO[C@@H]1O[C@H](COP(=O)(O)C(=O)O)[C@@H](O)[C@H](O)[C@H]1O	HFF	TOWNE	4.2 µM
Cc1cn([C@@H]2C[C@](O)(CO)CO2)c(=O)[nH]c1=O	HFF	AD169	>100 µM
COC(=O)[C@H](C)NP(=O)(OCC1C/C1=C/n1cnc2c(=O)[nH]c(N)nc21)Oc1ccccc1	HFF	TOWNE	4.2 µM
Cc1nc(NC2Cc3cc(F)c(F)cc3C2)nc(-n2ccnc2)c1[N+](=O)[O-]			0.13 µM
C=CC(CO)(CO)CCn1cnc2c(N)ncnc21			62.16 µg/mL
Nc1nc2c(ncn2COC(CO)CO)c(=O)[nH]1			5.6 µg/mL
Cc1cccn2c(C3OCCO3)cnc12	HEL	DAVIS	>116 µM
CC#CC=C[C@H]1O[C@@H](n2cnc3c(N)ncnc32)[C@H](O)[C@@H]1O	HEL	DAVIS	30 µM
[N-]=[N+]=N[C@H]1C[C@@H](CO)S[C@H]1n1ccc(N)nc1=O			<100 µg/mL
O=c1[nH]c(=O)n([C@@H]2C[C@H](CO)C[C@H]2CO)cc1I	HEL	AD169	>100 µg/mL
CC(=O)N[C@H]1C[C@@H](n2cnc3c(N)ncnc32)[C@H](O)[C@@H]1O	HFF		>100 µg/mL
CCCCCCCCCCCCCCO[C@H]1O[C@H](COP(=O)(O)C(=O)O)[C@@H](O)[C@H](O)[C@H]1O	HFF	TOWNE	3.1 µM
CSCCn1ccc(=O)n(Cc2cc(C)cc(C)c2)c1=O		AD169	>160 µM
Nc1ccn([C@H]2C[C@](O)(CO)CO2)c(=O)n1	HFF	AD169	>100 µM
CCCCCCCCCCCCCCCCOCCCOP(=O)(O)OCC(CO)OCn1cnc2c(=O)[nH]c(N)nc21	MRC-5	AD169	0.6 µM
Cc1cccn2c(C3SCCS3)cnc12	HEL	AD169	17 µM
CCOCn1ccc(=O)n(Cc2cc(C)cc(C)c2)c1=O		AD169	>170 µM
Nc1ccn([C@H]2C[C@H](CO)[C@@H](CO)O2)c(=O)n1			1.7 µg/mL
CCCCCCCCCCCCCCCCCCO[C@H]1O[C@H](COP(=O)(O)C(=O)O)[C@@H](O)[C@H](O)[C@H]1O	HFF	TOWNE	5.6 µM
Nc1ncnc2c1ncn2[C@H]1C[C@]12C[C@H]2CO	HFF		20 µM
O=c1ccn([C@H]2C[C@](O)(CO)CO2)c(=O)[nH]1	HFF	AD169	>100 µM
CC(C)(C)[Si](OC[C@H]1C[C@@H](Cn2cnc3c(N)ncnc32)c2cn(Cc3ccccc3)nc21)(c1ccccc1)c1ccccc1	HEL	AD169	0.5 µM
[N-]=[N+]=N[C@@H]1C[C@@H](CO)S[C@@H]1n1cnc2c(Cl)ncnc21			<100 µg/mL
Nc1nc2c(ncn2/C=C2/[C@H](CO)C2(F)F)c(=O)[nH]1	HFF		>100 µM
[N-]=[N+]=N[C@H]1C[C@@H](CO)S[C@@H]1n1cnc2c(=O)[nH]cnc21			<100 µg/mL
Cc1nc(N2CCOC[C@@H]2C)nc(-n2ccnc2)c1[N+](=O)[O-]			0.07 µM
Nc1ccn(C[C@H](CO)OCP(=O)(O)O)c(=O)n1			0.28 µM
CCCCCCCCCCCCO[C@@H]1O[C@H](CO)[C@@H](OP(=O)(O)C(=O)O)[C@H](O)[C@H]1O	HFF	TOWNE	60 µM
Cc1cccn2c(C3OCCS3)cnc12	HEL	AD169	63 µM
O=C(Nc1ccn([C@H]2C[C@](O)(CO)CO2)c(=O)n1)c1ccccc1	HFF	AD169	>100 µM
CCCCCCCc1cc2cnc(OC3CCCC3)nc2o1		DAVIS	3 µM
Cc1nc(NC2CCc3c(F)ccc(F)c32)nc(-n2ccnc2C)c1[N+](=O)[O-]			0.06 µM
[N-]=[N+]=N[C@H]1C[C@H](CO)S[C@@H]1n1ccc(=O)[nH]c1=O			<100 µg/mL
O=c1[nH]cnc2c1ncn2C1C[C@H](CO)[C@@H](CO)C1	HEL	DAVIS	>100 µg/mL
CCCCCCCCCCCCCCCCCCOCCOP(=O)(O)CO[C@H](CO)Cn1ccc(N)nc1=O	MRC-5	AD169	0.00002 µM
COC(=O)[C@H](C)NP(=O)(OC[C@H]1C/C1=C/n1cnc2c(OC)nc(N)nc21)Oc1ccccc1	HFF	AD169	4.5 µM
Nc1ncnc2c1c(I)cn2COCCO		TOWNE	4.6 µM
CCCCCCCCCCCCCCCCCCCCO[C@@H]1O[C@H](COP(=O)(O)C(=O)O)[C@H](O)[C@H](O)[C@H]1O	HFF	TOWNE	4 µM
Cc1nc(NC2CCc3c(F)cccc32)nc(-n2ccnc2)c1[N+](=O)[O-]			0.125 µM
Nc1nc2c(ncn2C=C2CC2CO)c(=O)[nH]1	HFF	TOWNE	2.1 µM
O=c1[nH]c(=O)n(C2C[C@H](CO)[C@@H](CO)C2)cc1I	HEL	DAVIS	>100 µg/mL
[N-]=[N+]=N[C@H]1C[C@H](CO)S[C@H]1n1ccc(=O)[nH]c1=O			<100 µg/mL
Cc1cc(C)cc(Cn2c(=O)ccn(CC#N)c2=O)c1		AD169	>74 µM
Cc1nc(N2CCOC[C@@H]2C)nc(-n2ccnc2C)c1[N+](=O)[O-]			0.38 µM
[N-]=[N+]=N[C@H]1C[C@H](CO)S[C@@H]1n1cnc2c(N)ncnc21			<100 µg/mL
C=CCn1ccc(=O)n(Cc2cc(C)cc(C)c2)c1=O		AD169	>190 µM
Cc1ccn2c(C3OCCS3)cnc2c1	HEL	DAVIS	>106 µM
Cc1cc(C)cc(Cn2c(C)cc(=O)n(CC#N)c2=O)c1		AD169	>710 µM
Nc1ncnc2c1ncn2/C=C1\[C@H](CO)C1(F)F	HFF		21 µM
[N-]=[N+]=N[C@@H]1C[C@@H](CO)S[C@H]1n1ccc(=O)[nH]c1=O			<100 µg/mL
CC1(C)OCC2(CO[C@@H](n3ccc(NC(=O)c4ccccc4)nc3=O)C2)O1	HFF	AD169	>100 µM

Repeating the final 4 entries:

structure	cells	strain	result
Cc1cc(C)cc(Cn2c(C)cc(=O)n(CC#N)c2=O)c1		AD169	>710 µM
Nc1ncnc2c1ncn2/C=C1\[C@H](CO)C1(F)F	HFF		21 µM
[N-]=[N+]=N[C@@H]1C[C@@H](CO)S[C@H]1n1ccc(=O)[nH]c1=O			<100 µg/mL
CC1(C)OCC2(CO[C@@H](n3ccc(NC(=O)c4ccccc4)nc3=O)C2)O1	HFF	AD169	>100 µM